PubChem BioAssay AID1259414 | Drosophila RNAi Screening Center, 2018

Purpose: 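Host factors increasing or decreasing Wolbachia levels in cultured fly cells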 (primary screen)
System: Drosophila JW18 cells infected with Wolbachia
Reagent: long dsRNA against Drosophila genes, 0.25 µg dsRNA per well of a 384-well plate
Timing: 5 days
Challenge: cells persistently infected with Wolbachia before knock-down; no added drug
Measurement: 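Automated imaging of bacterial rRNA staining divided by host cell count, reported as plate-normalised robust z-score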
Direction: Wolbachia per cell robust z: higher = more Wolbachia per host cell than the plate typical
Hit rule: 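Hit when robust z is 1.5 or more, or -1.5 or less, in at least two of three replicates; excludes dsRNAs with several or no targets, genes not expressed in JW18 and well A1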
The deposit covers about 24,000 reagents; this is a random part of those with a known target gene and a result. In the full data, about 1,210 (5%) are marked active. 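Inactive calls also include excluded dsRNAs with several or no targets, genes unexpressed in JW18, and well A1, regardless of score.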 A plus sign joins genes that one reagent is predicted to hit.

predicted target | DRSC id | Wolbachia per cell robust z, rep 1 | Wolbachia per cell robust z, rep 2 | Wolbachia per cell robust z, rep 3 | Call
Prosalpha2 | DRSC16798 | 0.628 | 2.73 | 1.07 | inactive
Prosalpha2 | DRSC28078 | 2.06 | 1.89 | 1.58 | active
udd | DRSC06720 | -2.32 | -0.368 | -1.86 | active
CG5111 | DRSC15717 | -1.54 | 0.573 | 0.257 | inactive
Acp26Aa | DRSC01855 | 0.0326 | -0.468 | -4.6 | inactive
Acp26Aa | DRSC40671 | 0.917 | 0.34 | 1.14 | inactive
CG31219 | DRSC15140 | 0.482 | -1.19 | -1.22 | inactive
Rpn3 | DRSC03318 | 2.45 | 2.16 | -1.51 | active
Rpn3 | DRSC29446 | -2.79 | -0.123 | -1.54 | inactive
tef | DRSC07301 | -1.64 | -0.0112 | -1.18 | inactive
tef | DRSC22041 | -0.382 | -1.71 | -0.161 | inactive
tef | DRSC26918 | 0.113 | -1.28 | 0.319 | inactive
Unc-76 | DRSC18193 | -0.238 | -0.165 | -0.163 | inactive
Unc-76 | DRSC18560 | -0.411 | 0.403 | -5.05 | inactive
CG14419 | DRSC17916 | -4.77 | 0.0367 | 0.256 | inactive
CG14419 | DRSC27046 | -1.36 | -0.506 | 0.676 | inactive
Tcs4 | DRSC19587 | -0.227 | 1.01 | -0.356 | inactive
Tcs4 | DRSC28855 | -0.957 | -0.918 | -1.1 | inactive
CG4734 | DRSC06885 | 0.112 | 0.415 | -0.0673 | inactive
CG4734 | DRSC22072 | -0.445 | -0.746 | -0.633 | inactive
CG13367 | DRSC18485 | 0.0867 | 0.248 | -2.05 | inactive
CG13367 | DRSC18486 | 0.95 | 1.52 | 0.864 | inactive
CG30036 | DRSC21334 | -0.122 | -0.304 | -0.0439 | inactive
Arp53D | DRSC05923 | 0.541 | -0.328 | 0.509 | inactive
neo | DRSC16316 | -3.8 | 0.215 | -0.732 | inactive
neo | DRSC24164 | 0.15 | 0.677 | -0.78 | inactive
mRpL9 | DRSC15678 | 0.281 | 0.747 | 0.677 | inactive
mRpL9 | DRSC27528 | 0.75 | -4.97 | 0.118 | inactive
CG42240 | DRSC18097 | 0.709 | 0.28 | 2.32 | inactive
CG42240 | DRSC30017 | -0.381 | -0.139 | 0.238 | inactive
Pex23 | DRSC10323 | -1.06 | -5.96 | -0.744 | inactive
Pex23 | DRSC10645 | 0.258 | 0.328 | -0.119 | inactive
Pex23 | DRSC28370 | 0.0743 | -1.67 | -0.363 | inactive
moi + Tgs1 | DRSC24535 | -0.0332 | -2.33 | -0.251 | inactive
cdi | DRSC16922 | -0.104 | 0.0157 | 1.7 | inactive
cdi | DRSC28376 | -1.14 | -0.111 | -1.56 | inactive
CG12594 | DRSC14532 | -0.934 | -3.28 | -4.06 | inactive
CG12594 | DRSC27229 | 0.404 | 0.424 | -0.685 | inactive
snoRNA:Me18S-C1280 (retired record) | DRSC26813 | 0.119 | -1.18 | -0.259 | inactive
CG40470 | DRSC37732 | 0.689 | 1.28 | 0.492 | inactive
Mcm5 | DRSC16735 | -0.192 | 0.62 | -1.23 | inactive
Mcm5 | DRSC29514 | -0.269 | 0.0218 | -0.304 | inactive
Pdzd8 | DRSC19355 | -0.191 | -0.326 | -1.47 | inactive
Pdzd8 | DRSC23702 | -0.518 | -0.0117 | 0.574 | inactive
rhea | DRSC11300 | 1 | 1.37 | 1.9 | inactive
ND-B14.7 | DRSC04544 | -0.343 | 0.691 | -0.519 | inactive
CG34327 | DRSC19517 | -3.91 | -0.25 | -1.71 | inactive
CG34327 | DRSC22380 | -0.14 | 0.425 | -0.657 | inactive
CG34327 | DRSC29197 | 0.0636 | -2.26 | -0.904 | inactive
Prps | DRSC08994 | -1.61 | -0.663 | 0.39 | inactive
Prps | DRSC10707 | -1.92 | 0.971 | 0.441 | inactive
Prps | DRSC10708 | 0.157 | 0.604 | 0.142 | inactive
Cnep1r1 | DRSC38789 | 0.971 | 1.51 | 1.11 | inactive
CG33259 | DRSC10854 | -0.163 | 0.316 | -0.796 | inactive
CG33259 | DRSC29910 | 0.681 | 0.68 | 0.874 | inactive
wrm1 + wrm2 | DRSC11007 | -1.57 | -0.727 | -3.81 | inactive
wrm1 + wrm2 | DRSC24006 | 0.648 | -0.356 | -0.566 | inactive
lmgA + lmgB | DRSC03566 | 0.656 | 0.174 | -0.46 | inactive
lmgA + lmgB | DRSC24454 | -0.712 | -0.838 | -1.53 | inactive
nbs | DRSC11373 | 1.19 | 0.587 | -2.31 | inactive
nbs | DRSC23793 | -0.306 | -0.845 | 0.209 | inactive
Cul4 | DRSC07243 | 0.0661 | 2.14 | 0.655 | inactive
Cul4 | DRSC27185 | 1.66 | 1.08 | 1.17 | inactive
Gpa2 | DRSC38765 | -2.4 | -2.87 | -4.34 | inactive
Flo2 | DRSC19062 | 0.595 | 0.554 | 0.418 | inactive
Flo2 | DRSC20244 | -0.34 | -0.171 | -1.27 | inactive
yem | DRSC14865 | -3.61 | 0.0978 | -0.1 | inactive
yem | DRSC17097 | 0.0106 | 0.461 | 0.295 | inactive

Part of the list above in another layout:
wrm1 + wrm2 [DRSC11007]
- Wolbachia per cell robust z, rep 1: -1.57
- Wolbachia per cell robust z, rep 2: -0.727
- Wolbachia per cell robust z, rep 3: -3.81
- Call: inactive

wrm1 + wrm2 [DRSC24006]
- Wolbachia per cell robust z, rep 1: 0.648
- Wolbachia per cell robust z, rep 2: -0.356
- Wolbachia per cell robust z, rep 3: -0.566
- Call: inactive

lmgA + lmgB [DRSC03566]
- Wolbachia per cell robust z, rep 1: 0.656
- Wolbachia per cell robust z, rep 2: 0.174
- Wolbachia per cell robust z, rep 3: -0.46
- Call: inactive

lmgA + lmgB [DRSC24454]
- Wolbachia per cell robust z, rep 1: -0.712
- Wolbachia per cell robust z, rep 2: -0.838
- Wolbachia per cell robust z, rep 3: -1.53
- Call: inactive

nbs [DRSC11373]
- Wolbachia per cell robust z, rep 1: 1.19
- Wolbachia per cell robust z, rep 2: 0.587
- Wolbachia per cell robust z, rep 3: -2.31
- Call: inactive

nbs [DRSC23793]
- Wolbachia per cell robust z, rep 1: -0.306
- Wolbachia per cell robust z, rep 2: -0.845
- Wolbachia per cell robust z, rep 3: 0.209
- Call: inactive

Cul4 [DRSC07243]
- Wolbachia per cell robust z, rep 1: 0.0661
- Wolbachia per cell robust z, rep 2: 2.14
- Wolbachia per cell robust z, rep 3: 0.655
- Call: inactive

Cul4 [DRSC27185]
- Wolbachia per cell robust z, rep 1: 1.66
- Wolbachia per cell robust z, rep 2: 1.08
- Wolbachia per cell robust z, rep 3: 1.17
- Call: inactive

Gpa2 [DRSC38765]
- Wolbachia per cell robust z, rep 1: -2.4
- Wolbachia per cell robust z, rep 2: -2.87
- Wolbachia per cell robust z, rep 3: -4.34
- Call: inactive

Flo2 [DRSC19062]
- Wolbachia per cell robust z, rep 1: 0.595
- Wolbachia per cell robust z, rep 2: 0.554
- Wolbachia per cell robust z, rep 3: 0.418
- Call: inactive
